Source: PubChem BioAssay AID1259414 (Drosophila RNAi Screening Center, 2018)

Purpose: 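Genome-wide screen for host control of endosymbiont load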 (primary screen)
Cells: Drosophila JW18 cells infected with Wolbachia
Reagents: long dsRNA against Drosophila genes, 0.25 µg dsRNA per well of a 384-well plate
Timing: 5 days
Treatment: cells persistently infected with Wolbachia before knock-down; no added drug
Measured: 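Imaged fluorescence in situ signal for Wolbachia 23S rRNA per DAPI-counted host cell, given as a robust z-score within each plate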
Scale: Wolbachia per cell robust z: higher = more Wolbachia per host cell than the plate typical
Call rule: 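Hit when robust z is 1.5 or more, or -1.5 or less, in at least two of three replicates; excludes dsRNAs with several or no targets, genes not expressed in JW18 and well A1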
The deposit covers about 24,000 reagents; below is an unselected part of those that have a named target and a result. Over the whole deposit, about 1,210 (5%) were called active. 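Inactive calls also include excluded dsRNAs with several or no targets, genes unexpressed in JW18, and well A1, regardless of score.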

no.	gene knocked down	amplicon	Wolbachia per cell robust z, rep 1	Wolbachia per cell robust z, rep 2	Wolbachia per cell robust z, rep 3	call
1	Glyp (Glycogen phosphorylase)	DRSC00752	0.281	-1.25	-0.801	inactive
2	Sce (Sex combs extra)	DRSC23442	0.788	4.02	-0.212	inactive
3	Desat2 (Desaturase 2)	DRSC15919	-0.369	-1.43	-1.86	inactive
4	Desat2 (Desaturase 2)	DRSC25894	-0.671	-1.26	-0.033	inactive
5	CG6230	DRSC01989	1.17	0.678	-0.553	inactive
6	CG15602	DRSC19671	0.585	-0.0566	0.0595	inactive
7	CG15602	DRSC30101	0.482	0.901	0.576	inactive
8	Gr61a (Gustatory receptor 61a)	DRSC08358	-0.638	1.41	0.987	inactive
9	EloC (Elongin C)	DRSC07423	0.203	-0.285	-1.96	inactive
10	EloC (Elongin C)	DRSC29393	1.17	1.49	1.26	inactive
11	EMC2B (ER membrane protein complex subunit 2B)	DRSC15506	0.0465	0.0345	0.225	inactive
12	Fib (Fibrillarin)	DRSC04614	-1.26	-2.19	-3.42	active
13	Tim13	DRSC09848	-0.0924	0.556	0.109	inactive
14	Cul4 (Cullin 4)	DRSC07243	0.0661	2.14	0.655	inactive
15	Cul4 (Cullin 4)	DRSC27185	1.66	1.08	1.17	inactive
16	CG13511	DRSC04153	0.694	-5.26	0.0339	inactive
17	CG13511	DRSC29026	1.19	1.53	0.958	inactive
18	Atx-1 (Ataxin 1)	DRSC18365	0.794	0.788	-1.72	inactive
19	GNBP2 (Gram-negative bacteria binding protein 2)	DRSC10404	-1.98	-0.976	0.0128	inactive
20	CG31211	DRSC14953	0.957	0.0818	0.264	inactive
21	CG31211	DRSC15344	0.597	1.44	-2.57	inactive
22	CG31211	DRSC21478	-1.64	0.211	0.632	inactive
23	CG17572	DRSC02629	-3.34	-3.75	-1.01	inactive
24	CG11050	DRSC02125	-0.395	0.16	-0.143	inactive
25	CG11050	DRSC23562	-0.911	-7.81	-1.66	active
26	RabX2	DRSC18234	-2.46	-1.31	-0.01	inactive
27	Smox (Smad on X)	DRSC23488	0.604	1.01	0.605	inactive
28	vn (vein)	DRSC23221	0.597	1.41	0.0929	inactive
29	vn (vein)	DRSC26550	-2.16	-0.754	-1.63	active
30	vn (vein)	DRSC40742	0.16	-0.025	-0.0966	inactive
31	Obp56b (Odorant-binding protein 56b)	DRSC06551	-0.222	0.0865	0.0866	inactive
32	CG8230	DRSC05931	-2.32	0.187	0.548	inactive
33	gwl (greatwall)	DRSC16305	0.771	0.105	1.81	inactive
34	CG32694	DRSC17844	-0.052	0.0407	0.433	inactive
35	CG32694	DRSC17855	0.781	-5.47	-1.13	inactive
36	CG32694	DRSC22670	-0.526	-0.0143	-0.798	inactive
37	CG32694	DRSC25730	-0.626	-1.1	-2.89	inactive
38	CG32694	DRSC25731	0.508	0.608	-1.15	inactive
39	Pka-C3 (Protein kinase, cAMP-dependent, catalytic subunit 3)	DRSC09402	-1.86	-0.89	-4.81	inactive
40	Pka-C3 (Protein kinase, cAMP-dependent, catalytic subunit 3)	DRSC11254	0.707	-0.677	0.38	inactive
41	Pka-C3 (Protein kinase, cAMP-dependent, catalytic subunit 3)	DRSC25050	-0.194	0.829	-0.169	inactive
42	CG4101	DRSC10400	0.142	0.00143	-1.69	inactive
43	CG14434	DRSC17927	0.746	-3.99	-2.99	active
44	Rab21	DRSC20968	0.598	0.591	0.769	inactive
45	Rab21	DRSC28617	1.24	0.787	0.62	inactive
46	Rab3GAP1 (RAB3 GTPase activating protein subunit 1)	DRSC00291	1.4	0.529	0.675	inactive
47	Rab3GAP1 (RAB3 GTPase activating protein subunit 1)	DRSC00703	-0.215	0.0271	-0.787	inactive
48	Rab3GAP1 (RAB3 GTPase activating protein subunit 1)	DRSC28988	1.03	0.25	1.12	inactive
49	GstE7 (Glutathione S transferase E7)	DRSC06677	-3.52	-1.04	-5.84	active
50	CG32448	DRSC22657	0.217	0.638	-0.756	inactive
51	Cpr11A (Cuticular protein 11A)	DRSC19861	-2.08	0.731	-0.0602	inactive
52	Cpr11A (Cuticular protein 11A)	DRSC26786	0.189	-1.32	0.342	inactive
53	Socs36E (Suppressor of cytokine signaling at 36E)	DRSC02455	-0.0276	-0.0336	0.813	inactive
54	Socs36E (Suppressor of cytokine signaling at 36E)	DRSC27917	-0.592	-0.19	-0.109	inactive
55	msd5 (mitotic spindle density 5)	DRSC08560	0.992	0.738	0.619	inactive
56	msd5 (mitotic spindle density 5)	DRSC26406	0.564	0.802	-0.459	inactive
57	CG31730	DRSC01308	-1.99	-1.87	-1.42	inactive
58	CG7430	DRSC10845	-1.63	0.818	0.554	inactive
59	RYBP (Ring and YY1 Binding Protein)	DRSC04117	-2.6	0.212	-4.2	inactive
60	RYBP (Ring and YY1 Binding Protein)	DRSC27464	-1.38	0.639	-0.165	inactive
61	Pi4KIIalpha (Phosphatidylinositol 4-kinase II alpha)	DRSC12322	-1.38	-3.93	-0.525	inactive
62	Pi4KIIalpha (Phosphatidylinositol 4-kinase II alpha)	DRSC12323	0.0111	-0.752	0.0862	inactive
63	Pi4KIIalpha (Phosphatidylinositol 4-kinase II alpha)	DRSC29095	1.2	0.607	0.725	inactive
64	CG3776	DRSC04417	-1.05	-0.829	-0.729	inactive
65	Crz (Corazonin)	DRSC16615	0.493	-3.25	1.09	inactive
66	rdgC (retinal degeneration C)	DRSC10069	-0.697	-1.11	-1.83	inactive
67	rdgC (retinal degeneration C)	DRSC11387	-0.583	-0.975	-0.501	inactive
68	CG12951	DRSC14579	-0.128	0.589	-0.0577	inactive
69	CG12951	DRSC25565	-0.281	0.445	0.637	inactive

Sorted by “Wolbachia per cell robust z, rep 1” (highest first): 6 of the entries above.
gene knocked down	amplicon	Wolbachia per cell robust z, rep 1	Wolbachia per cell robust z, rep 2	Wolbachia per cell robust z, rep 3	call
CG6230	DRSC01989	1.17	0.678	-0.553	inactive
CG15602	DRSC19671	0.585	-0.0566	0.0595	inactive
CG15602	DRSC30101	0.482	0.901	0.576	inactive
Desat2 (Desaturase 2)	DRSC15919	-0.369	-1.43	-1.86	inactive
Gr61a (Gustatory receptor 61a)	DRSC08358	-0.638	1.41	0.987	inactive
Desat2 (Desaturase 2)	DRSC25894	-0.671	-1.26	-0.033	inactive
